Experimental data published in PubChem BioAssay AID1903 (Southern Research Specialized Biocontainment Screening …, 2009).
Some of the results follow. Measured potencies and affinities stand elsewhere. Activity calls are given as the source filed them. No rule for the calls is given here.

Amino acid sequences for entries named in this document (tags omitted).
UniProt P03070, whole entry: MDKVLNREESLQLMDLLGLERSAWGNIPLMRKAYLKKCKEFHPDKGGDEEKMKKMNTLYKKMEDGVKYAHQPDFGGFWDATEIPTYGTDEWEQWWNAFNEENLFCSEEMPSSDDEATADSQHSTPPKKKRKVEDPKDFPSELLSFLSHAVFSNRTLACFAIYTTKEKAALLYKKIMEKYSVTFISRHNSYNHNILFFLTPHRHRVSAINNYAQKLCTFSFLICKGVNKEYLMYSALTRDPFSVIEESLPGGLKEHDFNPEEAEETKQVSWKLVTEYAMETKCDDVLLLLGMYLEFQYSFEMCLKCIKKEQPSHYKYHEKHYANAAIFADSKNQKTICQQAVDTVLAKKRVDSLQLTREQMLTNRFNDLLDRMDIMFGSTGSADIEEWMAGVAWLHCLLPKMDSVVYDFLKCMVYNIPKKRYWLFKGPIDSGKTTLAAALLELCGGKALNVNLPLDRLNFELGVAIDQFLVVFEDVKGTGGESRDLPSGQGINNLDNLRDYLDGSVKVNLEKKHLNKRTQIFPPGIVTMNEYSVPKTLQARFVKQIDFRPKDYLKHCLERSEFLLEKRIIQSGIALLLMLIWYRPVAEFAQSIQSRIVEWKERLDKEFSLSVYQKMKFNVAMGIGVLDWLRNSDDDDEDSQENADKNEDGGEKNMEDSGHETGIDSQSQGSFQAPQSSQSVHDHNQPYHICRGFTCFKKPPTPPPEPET

These molecules were tested against Large T antigen (Simian virus 40) (UniProt P03070) (assay: SV40 large T antigen inhibitors, biochemical (AID 1903)). Settings: SV40 large T antigen ATPase/helicase inhibition assay; at 20 µM; hits give high values.
`CP(=S)(Nn1cnnc1)Oc1ccccc1` (stereo unspecified) was tested, and the inhibition was inactive: 3.58%. For `COc1ccccc1OP(C)(=O)Nc1ccccc1` (stereo unspecified), the inhibition was inactive: 8.01%. With `CP(=O)(Nc1ccccc1Br)Oc1ccccc1` (stereo unspecified) the inhibition was inactive: -6.39%. For `CP(=O)(Oc1ccccc1)OC(c1ccccc1)C(F)(F)F` (stereo unspecified), the inhibition was inactive: 3.96%. `CP(=O)(Nc1ccc(SC(F)(F)F)cc1)Oc1ccc(Cl)cc1` (stereo unspecified) was tested, and the inhibition was inactive: 15.9%. In the case of `Cc1cccc(C)c1OP(C)(=O)Nc1ccc(SC(F)(F)F)cc1` (stereo unspecified), the inhibition is reported as inactive: 6.81%. In the case of `Cc1cc(C)cc(OP(C)(=O)Nc2ccc(SC(F)(F)F)cc2)c1` (stereo unspecified), the inhibition is reported as inactive: -1.78%. `CCc1ccc(OP(C)(=O)N2CCN(c3ccc([N+](=O)[O-])cc3)CC2)cc1` (stereo unspecified) was tested, and the inhibition was inactive: 15.4%. `CP(=O)(NC(=O)Nc1ccccc1)Oc1ccccc1` (stereo unspecified) was tested, and the inhibition was inactive: 8.83%. With `CCOP(C)(=S)SCC(=O)NC(C)C(=O)O` (stereo unspecified) the inhibition was inactive: 7.34%. For `O=[N+]([O-])c1cc([N+](=O)[O-])c(O)c([N+](=O)[O-])c1.c1ccc(Oc2ccncc2)cc1`, the inhibition was inactive: 12.7%. For `CCOC(=O)c1ccc(NP(C)(=O)Oc2ccc(OC)cc2)cc1` (stereo unspecified), the inhibition was inactive: 17.1%. In the case of `CP(=O)(Nc1ccccn1)Oc1ccc(Cl)cc1` (stereo unspecified), the inhibition is reported as inactive: 9%. In the case of `CCN(CC)CCCOC(=O)C(O)(c1ccccc1)c1ccccc1`, the inhibition is reported as inactive: 14%. For `O=[N+]([O-])c1cc([N+](=O)[O-])c(Nc2cccnc2)c([N+](=O)[O-])c1`, the inhibition was inactive: 14.8%. `Cc1cccc(C)c1OP(C)(N)=O` (stereo unspecified) was tested, and the inhibition was inactive: 21.4%. `CC(C)(C)c1ccc(OP(C)(=O)Nc2ccc(SC(F)(F)F)cc2)cc1` (stereo unspecified) was tested, and the inhibition was inactive: -1.62%. `O=[N+]([O-])c1ccc2c(c1)C=Nc1ccccc1O2` was tested, and the inhibition was inactive: 21.8%. With `CCOC(=O)c1ccc(NP(C)(=O)Oc2ccccc2)cc1` (stereo unspecified) the inhibition was inactive: -3.27%. `Cc1ccc(NP(C)(=O)Oc2ccccc2)c(C)c1` (stereo unspecified) was tested, and the inhibition was inactive: 17.7%. For `COc1ccccc1OP(C)(=O)Nc1ccc(C)cc1` (stereo unspecified), the inhibition was inactive: 2.63%. For `COc1ccc(OP(C)(=O)Nc2cccc(F)c2)cc1` (stereo unspecified), the inhibition was inactive: 2.09%. `COc1ccccc1OP(C)(=O)Nc1cc(Cl)ccc1C` (stereo unspecified) was tested, and the inhibition was inactive: 11.9%. With `Cc1cc(C)cc(OP(C)(N)=O)c1` (stereo unspecified) the inhibition was inactive: 4.39%. For `O=C(O)c1cccc(Nc2c([N+](=O)[O-])cc([N+](=O)[O-])cc2[N+](=O)[O-])c1`, the inhibition was inactive: 3.06%. With `CC1=NCCc2c1[nH]c1ccccc21.O=[N+]([O-])c1cc([N+](=O)[O-])c(O)c([N+](=O)[O-])c1` the inhibition was inactive: 2.43%. `COc1ccccc1OP(C)(=O)Nc1cccc(Br)c1` (stereo unspecified) was tested, and the inhibition was inactive: 7.71%. For `Cc1cc(C)cc(OP(C)(=O)Nc2ccc(C)cc2C)c1` (stereo unspecified), the inhibition was inactive: 2.46%. In the case of `CCOC(=O)c1ccc(NP(C)(=O)Oc2cc(C)cc(C)c2)cc1` (stereo unspecified), the inhibition is reported as inactive: 4.64%. For `CP(=O)(Nc1cccc(Br)c1)Oc1ccccc1` (stereo unspecified), the inhibition was inactive: 6.51%. `Cc1cc(C)cc(OP(C)(=O)Nc2ccccn2)c1` (stereo unspecified) was tested, and the inhibition was inactive: 6.79%. For `Cc1ccc(C)c(NP(C)(=O)Oc2ccccc2)c1` (stereo unspecified), the inhibition was inactive: 3.29%. With `O=[N+]([O-])c1cc([N+](=O)[O-])c(-n2nnc3ccccc32)c([N+](=O)[O-])c1` the inhibition was inactive: 7.54%. For `O=[N+]([O-])c1cc([N+](=O)[O-])c(-c2cnn(-c3ccccc3)c2)c([N+](=O)[O-])c1`, the inhibition was inactive: 13.7%. In the case of `Cc1nc2ccc3ccccc3c2s1.O=[N+]([O-])c1cc([N+](=O)[O-])c(O)c([N+](=O)[O-])c1`, the inhibition is reported as inactive: 21.9%. In the case of `CCOC(=O)C(CC)C1=NC(C)(C)Cc2ccccc21.O=[N+]([O-])c1cc([N+](=O)[O-])c(O)c([N+](=O)[O-])c1` (stereo unspecified), the inhibition is reported as inactive: 8.67%. `O=[N+]([O-])c1cc([N+](=O)[O-])c(Nc2nnnn2CCO)c([N+](=O)[O-])c1` was tested, and the inhibition was inactive: 23.8%. With `CC1=C2N=C(C=C3N=C(C(C)=C4[N-][C@@](C)([C@@H]5N=C1[C@](C)(CCC(=O)NC[C@@H](C)OP(=O)([O-])O[C@H]1[C@@H](O)[C@@H](n6cnc7cc(C)c(C)cc76)O[C@@H]1CO)[C@H]5CC(N)=O)[C@@](C)(CC(N)=O)[C@@H]4CCC(N)=O)[C@@](C)(CC(N)=O)[C@@H]3CCC(N)=O)C(C)(C)[C@@H]2CCC(N)=O.[C-]#N.[Co+3]` the inhibition was inactive: -3.2%. For `CN1CCCCC1COC(=O)C1(O)c2ccccc2CCc2ccccc21` (stereo unspecified), the inhibition was inactive: 5.83%. In the case of `COc1ccccc1OP(C)(=O)Nc1c(C)cccc1C` (stereo unspecified), the inhibition is reported as inactive: 9.73%. With `CP(=O)(Nc1ccc(SC(F)(F)F)cc1)Oc1ccccc1` (stereo unspecified) the inhibition was inactive: 1.33%. For `CCCOc1ccc(NP(C)(=O)Oc2ccc(Cl)cc2)cc1` (stereo unspecified), the inhibition was inactive: 8.64%. In the case of `COc1ccc(OP(C)(=O)Nc2cccc(Br)c2)cc1` (stereo unspecified), the inhibition is reported as inactive: 1.6%. For `COc1ccc(NP(C)(=O)Oc2ccccc2OC)cc1` (stereo unspecified), the inhibition was inactive: 17.3%. `CN(C)CCOC(=O)C(O)(c1ccccc1)C1CCCCC1` (stereo unspecified) was tested, and the inhibition was inactive: 4.64%. `Cc1cc(-c2cccc3ccccc23)c(C)cn1.O=[N+]([O-])c1cc([N+](=O)[O-])c(O)c([N+](=O)[O-])c1` was tested, and the inhibition was inactive: 7.33%. `O=[N+]([O-])c1cc([N+](=O)[O-])c(NCC2CCS(=O)(=O)C2)c([N+](=O)[O-])c1` (stereo unspecified) was tested, and the inhibition was inactive: 0.33%. `O=[N+]([O-])c1ccc(OP2(=O)COCCO2)cc1` (stereo unspecified) was tested, and the inhibition was inactive: 5.94%. With `CP(=O)(Nc1ccc(SC(F)(F)F)cc1)Oc1ccc(F)cc1` (stereo unspecified) the inhibition was inactive: 5.22%. `CCOP(C)(=S)SCC(=O)NC(C)(CC)C(=O)O` (stereo unspecified) was tested, and the inhibition was inactive: 3.33%. For `CP(=O)(Nc1ccc2c(c1)OCCO2)Oc1ccccc1` (stereo unspecified), the inhibition was inactive: 12.1%. `Cc1ccccc1NP(C)(=O)Nc1ccccc1C` was tested, and the inhibition was inactive: 6.06%. In the case of `CC(C)c1ccc(OP(C)(=O)Nc2ccc(SC(F)(F)F)cc2)cc1` (stereo unspecified), the inhibition is reported as inactive: 11%. `CP(=O)(Nc1ccccc1F)Oc1ccccc1` (stereo unspecified) was tested, and the inhibition was inactive: 5.83%. `O=C(OCCN1CCN(CCOCc2ccccc2)CC1)C(O)(c1ccccc1)c1ccccc1` was tested, and the inhibition was inactive: 3.13%. For `O=C(OC1CN2CCC1CC2)c1ccc([N+](=O)[O-])cc1` (stereo unspecified), the inhibition was inactive: 5.65%.
